Source: PubChem BioAssay AID624099 (ICCB-Longwood, 2012)
The deposit covers about 21,000 reagents; below is a part drawn at random. 497 of them (2.4%) count as active. 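Higher z means weaker E2 silencing; only reporter increases were scored, and knock-downs that hurt cell survival may mask genuine repressor factors.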

Screen: 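Human genes that papillomavirus E2 requires to repress the HPV18 LCR promoter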 (primary screen)
Cells: human C33A cervical carcinoma cells (HPV-negative) stably expressing BPV1 E2 and an HPV18 LCR luciferase reporter
Reagents: siRNA pool against human genes, 40 nM
Time to read-out: 72 h
Measurement: 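Per-well luciferase luminescence, z-scored on each plate against the plate mean and SD with control wells left out, then averaged across three replicate plates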
Reading the numbers: mean z-score and z-score: higher = stronger reporter signal, weaker E2 silencing
Call rule: 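Hit if mean z-score reaches 2 and two or more of three replicate z-scores also reach 2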

MACC1 → mean z-score: 0.5; z-score, replicate A: 0.79; z-score, replicate B: 0.14; z-score, replicate C: 0.56; activity call: inactive
LOC400638 (retired record) → mean z-score: -0.22; z-score, replicate A: -0.08; z-score, replicate B: -0.42; z-score, replicate C: -0.15; activity call: inactive
LINC00636 → mean z-score: -0.55; z-score, replicate A: -0.69; z-score, replicate B: -0.78; z-score, replicate C: -0.16; activity call: inactive
LOC388929 (retired record) → mean z-score: -0.24; z-score, replicate A: -0.09; z-score, replicate B: -0.36; z-score, replicate C: -0.26; activity call: inactive
RASGEF1C → mean z-score: -1.32; z-score, replicate A: -0.84; z-score, replicate B: -1.55; z-score, replicate C: -1.58; activity call: inactive
IAPP → mean z-score: -0.67; z-score, replicate A: -0.62; z-score, replicate B: -0.69; z-score, replicate C: -0.7; activity call: inactive
CD74 → mean z-score: -0.26; z-score, replicate A: -0.27; z-score, replicate B: -0.37; z-score, replicate C: -0.14; activity call: inactive
LOC145660 (retired record) → mean z-score: 0.43; z-score, replicate A: 0.11; z-score, replicate B: 0.74; z-score, replicate C: 0.45; activity call: inactive
LOC402322 (retired record) → mean z-score: 0.37; z-score, replicate A: 0.46; z-score, replicate B: 0.61; z-score, replicate C: 0.04; activity call: inactive
COL24A1 → mean z-score: -1.71; z-score, replicate A: -1.36; z-score, replicate B: -1.9; z-score, replicate C: -1.88; activity call: inactive
GON4L → mean z-score: -0.75; z-score, replicate A: -1.22; z-score, replicate B: -0.39; z-score, replicate C: -0.63; activity call: inactive
CSH2 → mean z-score: -1.23; z-score, replicate A: -0.95; z-score, replicate B: -1.72; z-score, replicate C: -1.03; activity call: inactive

Individual results from above.
Entry for COL24A1 under “mean z-score”: -1.71
Result for CSH2 in “z-score, replicate B”: -1.72
